Fold change is the IC50 on the isolate divided by the IC50 on a reference virus; 1 = unchanged, higher = more resistant. Changes are given against the subtype B consensus. No active / inactive call. The values were gathered from many studies (numbered anew) with different assays, which the source does not name. Most viruses are clinical isolates; some are laboratory strains or clones with known resistance changes. Isolates with mixed residues are left out; stretches that were not sequenced show no change. Round top values that many isolates share are read here as limits; other very high values and 0.1 may be limits too.
Key:
Experiment in all cases: fold change of IC50 against reference virus; higher = more resistant
zidovudine = compound: Cc1cn([C@H]2C[C@H](N=[N+]=[N-])[C@@H](CO)O2)c(=O)[nH]c1=O [zidovudine]
Experimental: (§1)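 Cell-culture drug susceptibility tests of virus bearing the reverse transcriptase of each isolate, gathered from many studies.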

didanosine = compound: O=c1[nH]cnc2c1ncn2[C@H]1CC[C@@H](CO)O1 [didanosine]
Experimental: as §1

nevirapine = compound: Cc1ccnc2c1NC(=O)c1cccnc1N2C1CC1 [nevirapine]
Experimental: as §1

Row | Test System | fold change of IC50 against reference virus (zidovudine) | fold change of IC50 against reference virus (didanosine) | fold change of IC50 against reference virus (nevirapine)
1 | HIV-1 isolate 20 (reverse transcriptase changes: V35T E36A T39E S48T V60I K122E D123G I135T S162A K173A D177E T200A Q207E R211K, study 99) | 1 | 1.1 | 1
2 | HIV-1 isolate 22 (reverse transcriptase changes: L74V K102Q S162C K277R I293V R358K V435I S468P K550G, study 16) | – | 4 | 1
3 | HIV-1 isolate 69 (reverse transcriptase changes: L74V K102Q S162C Y181C K277R I293V R358K V435I S468P K550G, study 16) | – | 4 | 8
4 | HIV-1 isolate 122 (reverse transcriptase changes: L74V K102Q K103N S162C K277R I293V R358K V435I S468P K550G, study 16) | – | 8 | 8
5 | HIV-1 isolate 157 (reverse transcriptase changes: M41L K122E F214L T215Y A272P K277R M357T A376T A400T N447S D460N S468T S519N, study 13) | 70 | 1.1 | 1
6 | HIV-1 isolate 190 (reverse transcriptase changes: L74V K102Q K103N S162C T215Y K277R I293V R358K V435I S468P K550G, study 45) | 2000 | 8 | 30
7 | HIV-1 isolate 199 (reverse transcriptase changes: F77L K102Q S162C K277R I293V R358K V435I S468P K550G, study 4) | 1 | 1 | –
8 | HIV-1 isolate 210 (reverse transcriptase changes: D67N K70R K102Q K103N S162C T215Y K219Q K277R I293V R358K V435I S468P K550G, study 16) | 8000 | – | 8
9 | HIV-1 isolate 347 (reverse transcriptase changes: M41L K122E Y181C F214L T215Y A272P K277R M357T A376T A400T N447S D460N S468T S519N, study 13) | 2 | 0.4 | 200
10 | HIV-1 isolate 357 (reverse transcriptase changes: D67N K70R A98G K102Q S162C T215Y K219Q K277R I293V R358K V435I S468P K550G, study 16) | 2000 | – | 1
11 | HIV-1 isolate 428 (reverse transcriptase changes: M41L A98G K102Q S162C T215Y K277R I293V R358K V435I S468P K550G, study 16) | 4000 | – | 8
12 | HIV-1 isolate 448 (reverse transcriptase changes: K70R K102Q S162C K277R I293V R358K V435I S468P K550G, study 16) | 4 | – | 1
13 | HIV-1 isolate 468 (reverse transcriptase changes: V75I F77L K102Q F116Y Q151M S162C K277R I293V R358K V435I S468P K550G, study 72) | 880 | 27 | –
14 | HIV-1 isolate 470 (reverse transcriptase changes: V75I F77L K102Q F116Y Q151M S162C M184V K277R I293V R358K V435I S468P K550G, study 128) | 700 | 17 | –
15 | HIV-1 isolate 526 (reverse transcriptase changes: L74V K102Q K103N S162C T215Y K219Q K277R I293V R358K V435I S468P K550G, study 45) | 4 | 8 | 30
16 | HIV-1 isolate 579 (reverse transcriptase changes: M41L V106A K122E F214L T215Y A272P K277R M357T A376T A400T N447S D460N S468T S519N, study 17) | 110 | – | 300
17 | HIV-1 isolate 641 (reverse transcriptase changes: L74V K122E F214L A272P K277R A376T A400T D460N S468T H483Y K512Q S519N, study 72) | – | 3 | –

Source: the supplement of paper PMC3578754
